{"source": "patent US20060121449A1", "about": "“Method for selection of compounds which inhibit clonal cell growth and use thereof” (priority 2002, published 2006)", "tested_on": "Ehrlich ascites tumour", "conditions": "Exp 18", "data": [{"smiles": "CCCCC1(O)C(=O)N(c2ccccc2)N(c2ccc(O)cc2)C1=O", "note": "(centres unmarked) [4-OH-OPB, 4-butyl-4-hydroxy-2(p-hydroxyphenyl)-1-phenyl-3,5-pyrazolidinedione]", "values": [{"measurement": "organs, findings on section", "setting": "at killing", "value": "tumour in left side of abdominal wall. Normal organs."}, {"measurement": "Animal weight on section", "setting": "at killing (mouse 1 day 14, mice 2 and 3 day 16), control 37.3", "value": 38.9, "unit": "g"}]}]}
